Legend:
NDM-1 = NDM-1 (Klebsiella pneumoniae, UniProt C7C422); settings: read-out: NDM-1 IC50; NDM-1 enzyme, CCF2-FA substrate
[1] = test system: Escherichia coli expressing NDM-1 (CLB30016); experiment: Antibiotic potentiation activity: synergistic concentration (MITC95) with imipenem, OD600 growth; format: cell-based; settings: (CLB30016, NDM-1), 95% growth inhibition
[2] = test system: Klebsiella pneumoniae expressing VIM-1 (IHMA599644); experiment: as above; format: cell-based; settings: Klebsiella pneumoniae IHMA599644 (VIM-1), 95% growth inhibition
IMP-1 = IMP-1 (Serratia marcescens, UniProt P52699); settings: read-out: IMP-1 IC50; IMP-1 enzyme, CCF2-FA substrate
VIM-1 = VIM-1 (Pseudomonas aeruginosa (strain ATCC 15692 / DSM 22644 / CIP 104116 / JCM 14847 / LMG 12228 / 1C / PRS 101 / PAO1), UniProt A0A0F7KYQ8); experiment: Enzyme activity: determination of IC50, fluorescence assay with CCF2-FA substrate (VIM-1); format: biochemical; settings: read-out: VIM-1 IC50, VIM-1 enzyme
[3] = test system: Serratia marcescens expressing IMP-1 (CL5741); experiment: Antibiotic potentiation activity: synergistic concentration (MITC95) with imipenem, OD600 growth; format: cell-based; settings: Serratia marcescens CL5741 (IMP-1), 95% growth inhibition

Chains of the proteins cited; added tags and fusions are not shown. Residues count along the entry.
UniProt P52699, 19-246 limits assumed: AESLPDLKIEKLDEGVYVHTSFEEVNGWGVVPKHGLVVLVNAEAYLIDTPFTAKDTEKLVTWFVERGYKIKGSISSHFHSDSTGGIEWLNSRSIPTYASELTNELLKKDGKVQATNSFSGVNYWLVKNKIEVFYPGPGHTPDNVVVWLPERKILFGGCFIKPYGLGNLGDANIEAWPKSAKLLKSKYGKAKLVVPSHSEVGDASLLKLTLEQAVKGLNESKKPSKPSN

| Compound | IC50 (NDM-1) | Escherichia coli MITC95 [1] | Klebsiella pneumoniae MITC95 [2] | IC50 (IMP-1) | IC50 (VIM-1) | Serratia marcescens MITC95 [3] |
| --- | --- | --- | --- | --- | --- | --- |
| CC(C)(O)C1CCN(c2ccc(-c3cccc(S(N)(=O)=O)c3-c3nn[nH]n3)cn2)C1 (centres unmarked) | 9.13 nM | 4.688 µM | >200 µM | 68.5 nM | 356 nM | – |
| Nc1nc2c(-c3ccc(CC4CCNCC4)c(S(N)(=O)=O)c3-c3nn[nH]n3)cccc2s1 | 0.728 nM | 0.7813 µM | 1.563 µM | 19.2 nM | 2.23 nM | 3.125 µM |

From patent US9708336B2, “Metallo-beta-lactamase inhibitors” (priority 2014, dated 2017)
